Measurements from US10189862B2, “Phenothiazine-pyridine compounds and uses thereof” (The Chinese University of Hong Kong, priority 2016, dated 2019).

Assays:
A549 cell line = assay: Photocytotoxicity (PDT), MTT assay; type: cell-based
Procedure: (§1) Cell lines and culture conditions: A549, HT29, MCF-7, MDA-MB-231 cell lines were maintained in RPMI1640 supplemented with fetal bovine serum (10%) and penicillin-streptomycin solution (1%), and WI38 cells were maintained in DMEM supplemented with fetal bovine serum (10%) and penicillin-streptomycin solution (1%). Approximately 1×10^4 (for A549, HT29, MCF-7, MDA-MB-231) or 1.5×10^4 (for WI38) cells per well were seeded in 96-well plate and incubated overnight light at 37° C. in a humidified atmosphere with 5% CO2.
(§2) Photocytotoxicity: Cells were incubated with different concentrations of photosensitive drug for 1 h in the dark, then the medium in the well was sucked by a syringe, and washed by PBS. Then a solution of new medium was added, and illuminated by light. After irradiation, the cells were incubated under dark at 37° C. for another 24 h, and the cell viabilities were determined by MTT assay.

HT29 cell line = assay: Photocytotoxicity (PDT), MTT assay; type: cell-based
Procedure: as §1, §2

## CCCNc1cc2[s+]c3cc(N(CC)CC)ccc3nc2c2ccc(C)nc12.[Cl-] [Compound 14, 9-(diethylamino)-3-methyl-5-(propylamino)pyrido[3,2-a]phenothiazin-7-ium chloride]
A549 cell line
  Ratio of DK/PDT: 9.1
HT29 cell line
  Ratio of DK/PDT: 53.8
